The text below walks through data of PubChem BioAssay AID720488 (Milwaukee Institute for Drug Discovery, 2013).

The entries are a selection whose mix differs from that of the whole data set. Calls of active or inactive are those of the source.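 How the source made its calls: active means compound fluorescence over control fluorescence at most 0.8, a quencher, or at least a set upper limit, an enhancer; inactive means ratio between 0.8 and the set upper limit.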

The nature of the assay: Cy5 fluorescence quenchers or enhancers, artefact control for HCV NS3 helicase inhibitor project, biochemical, ChemBridge library, Cy5 readout (AID 720488). The settings on record: Cy5-dT15 DNA with NS3h, at 100 µM, actives lie on both sides, signal over control mean, under 1 quenches.
As to `O=C(CF)NC(Sc1ccc(Cl)cc1)C(Cl)(Cl)Cl` (centres undefined), the fluorescence interference ratio was inactive: 1.06.

As for `Cc1ccc(SC(NC(=O)c2ccccc2)C(Cl)Cl)cc1` (centres undefined), the fluorescence interference ratio is active: 0.761.

Take `COC(=O)NC(Sc1ccc(Cl)cc1)C(Cl)Cl` (centres undefined): the fluorescence interference ratio was active: 0.778.

In the case of `CCCCSP(=O)(OCC(C)C)OCC(C)C`, the fluorescence interference ratio was inactive: 0.959.
